Results from the supplement of paper PMC9931576.
Numbering of substitutions follows the chain as printed. Human monoclonal antibodies against the spike receptor-binding domain (heavy:light variable regions). IC50 against pseudoviruses bearing the spike of naturally observed variants; lower = stronger; >10 µg/ml means not reached at the top dose. No active / inactive call. The stated detection limit is 0.0005 µg/ml; values near or below 0.001 µg/ml lie at the floor of the assay.

B1: BD56-1843 (protein)
chain 1: QVQLVQSGAEVKKPGSSVKVSCKASGGTFNLYAISWVRQAPGQGLEWMGRIIPLNGIANYAQKFQGRLTITADKSTSTSYMDLSSLRSHDTAVYYCTRSTLAAAGVSVVDAFDIWGQGTMIAVSS
chain 2: DIQMTQSPSTLSASVGDRVTITCRASQRINSWLAWYQQHPGKAPKLLIYDASSLQSGVPPRFSGSGAGTEFTLTISSLQPDDFATYYCQQYESYSPITFGGGTKVEMK
B2: BD56-1819 (protein)
chain 1: QVQLVQSGAEVKRPGSSVKVSCKASGGTFSSYPMSWVRQAPGHGLEWMGKIIPILGITHYAQKFQDRVTITADKSTSTTYMELGSLRSEDTAVYYCARVGGYSSGGAADYFDLWGQGTLVTVSS
chain 2: QSVLTQPPSVSGAPGQRVTISCTGSNSNIGAGYDVHWYQQLPGTAPKLLISGNSNRPSGVPDRFSGSNSGTSASLAITGLHAEDEADYYCQSYDSSLSDVIFGGGTTLTVL
B3: BD56-1842 (protein)
chain 1: EVQLMESGGKLVQPGRSLRLSCAASGFAFGDYAIHWVRQAPGKSLEWISGINWNKDPIRYADSVKGRFTISRDNAKNSLFLQMDSLRVEDTALYYCAKDIGRFIYGEAFDIWGQGTMVTVSS
chain 2: DIQMTQSPSSLSASVGDRVTITCRASQNIASYLNWYQLKPGRAPKLLISATSSLQSGVPSRFSGSGSGTDFTLTISSLQPEDFATYSCQQSYSTLVFTFGPGTKVEIK
B4: BD56-1818 (protein)
chain 1: HLQLQESGPGLVKPSETLSLTCTVSDGSISSRSYYWGWIRQPPGKGLEWIGTIFHTGSTYYNPSLKSGVTLSLDTSKNQFSLKLTSVTAADTAVYYCARLLRASGWFDPWGQGTLVTVSS
chain 2: EIVMTQSPDSLAVSLGERATINCKSSHSLLYNSNNKDYLAWYQQKPGQPPRLLIYWASTRESGVPDRFSGSGSGTDFTLTISSLQAEDVAVYYCQQYYNTLPLTFGGGTKVEIK
B5: BD56-1817 (protein)
chain 1: QVQLQESGPGLVKPSQTLSLTCSVSGGSISSGTYYWSWIRQSAGKGLEWIGRIYTSESINYNSSFKGRVTISVDTSKNQFSLKLSSVTAADTAVYYCACGGDFRYFDLWGRGTQVTVTS
chain 2: NFMLTQPHSVSESPGKTVTISCTRNIGSVASNFVQWYQLRPGSAPTTIIYEDNQRPSGVPDRFSGSIDSFSNSASLTISGLKTEDGADYYCQSYDSGNVLFGGGTKLTVL
B6: BD56-1816 (protein)
chain 1: EVHLVQSGAEVKKPGESLRISCQASGYTFTNYWITWVRQMPGKGLEWMARIDPRDSESKYSPTFQGHVTMSIDKSIRTVYLQWTRLKASDSGIYYCARHAIESSGWDGQFGPWGQGTLVTVSS
chain 2: SYELTQPPSVSVSPGQTARITCSGDAFPNQYVYWYQQKPGQAPVLIIFEDTERPSGIPERFSGSTSGTRVTLTISGVQVEDEADYYCLSADSSGALFGGGTKLTVL
B7: BD56-1839 (protein)
chain 1: QVQLVQSGAEVKKPGSSVKVSCKASGGTFPRHAFNWVRQAPGQGLEWMGRVSPILGIPQYAQNFQGTVTITADTSTSTAYMELSSLRSEDTAVYFCATAKFDDASGSYHDAFDGWGQGTLVTVSS
chain 2: DIQMTQSPSTLAASVGDRVTITCRASQRINNWLAWYQQKPGKAPNLLIYDASTLESGVPSRFSGGGSGTEFTLTISSLRPDDFATYYCQQYESYSPLTFGGGTKVEIK
B8: BD56-1813 (protein)
chain 1: HVRLVESGGGVVQPGRSLRLSCAASGFTFSNYGMHWVRQAPGKGLEWVASIFYDGSNKFYRDSVKGRFTISRDNSNNALYLQMNSLRAEDTAVYYCAKEDRPTTVTTFTAFDLWGQGTLVTVSP
chain 2: SYVLTQPPSVSVAPGKTASITCGGDSIGSKNVHWYQQKPGQAPILVIYYDTDRPSGIPERFSGSNSGNTATLTISRVEAGDEADYYCQVWDSSVVFGGGTKLTVL
B9: BD56-1832 (protein)
chain 1: EVQLLESGGALVQPGGSLNLSCAASGFTFSNYAMVWLRQAPGKGLEWVSGISGSGTDTFYAESVKGRFTISRYNSKNTLYLQMNSLRVEDTAIYYCAKGELLWFGELLNGWFDPWGQGTLVTVSS
chain 2: DVQMTQSPSSLSTSVGDRVTITCRAGQNINNYLNWYQHKPGKAPKLLIYAASSLQSGVPSRFSGSGSGTDFTLTISSLQPEDFATYYCQEFYSSQYTFGQGTKLEIK
B10: BD56-1841 (protein)
chain 1: EVQLVESGGGLVKPGGSRRLSCAASGFTFSSYSMNWVRQAPGKGLEWVSSISSTSDFKNYADSVKGRFTISRDNAKNSLYLQMNSLRAEDTALYYCARDADVVVVAASSRGLGYYYGLDVWGQGTTVTVSS
chain 2: DIQMTQSPSSLSASVGDSVTITCRASQSISKYLNWYQQKPGKAPKLLIYAASSLQSGVPSRFSGSGSGTDFTLTISSLQPEDFATYYCQQSYTIPPITFGQGTRLEIK
B11: BD56-1845 (protein)
chain 1: QVQLQQWGAGLLKPSETLSLTCVVYGGSFSDYSWSWIRQPPGKGLEWIGEINHSGFTNYNPSLKSRVTISVDTSKNQFSLKVSSVTAADTAVYYCARVSAHRIAVAGTGWFDPWGQGTPVTVSS
chain 2: B10 chain 2 with G16R, S18R, K31R, F83C, T93E, I94T, I97V, Q101G, R104K, L105V
B12: BD56-1829 (protein)
chain 1: EVQLVESGGGLVQPGGSLKLSCAVSGFTFNNFEMNWVRQAPGKGLEWIAYISRSGSSIQYADSVKGRFSISRDNAKNSLYLQMNSLRAEDTAVYYCARVLYYYGSGTMSHWGQGTLVTVSS
chain 2: DIQMTQSPSSLSASVGDRLTITCRASQTINSFLNWYQQKPGKAPNLLIYATSTLHSGVPSRFSGSGSGTDFTLTISSLQPEDFATYYCQQSYSVPPTFGGGTKVDLK

Assays:
Test in all cases: pseudovirus neutralization IC50; higher = weaker neutralization
[1] = target: SARS-CoV-2 Omicron BA.1 spike pseudovirus
Method: (§1)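 Single-round VSV luciferase pseudovirus mixed with antibody dilutions for 1 h and put on Huh-7 cells for about a day; IC50 from the dose curve.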

[2] = target: SARS-CoV-2 Omicron BA.2 spike pseudovirus
Method: as §1

[3] = target: SARS-CoV-2 Omicron BA.2.75 spike pseudovirus
Method: as §1

[4] = target: SARS-CoV-2 Omicron BA.5 spike pseudovirus
Method: as §1

[5] = target: SARS-CoV-2 Omicron BQ.1.1 spike pseudovirus
Method: as §1

[6] = target: SARS-CoV-2 Omicron XBB spike pseudovirus
Method: as §1

[7] = target: SARS-CoV-2 early D614G spike pseudovirus
Method: as §1

Row | Binder | pseudovirus neutralization IC50 [1] [µg/mL] | pseudovirus neutralization IC50 [2] [µg/mL] | pseudovirus neutralization IC50 [3] [µg/mL] | pseudovirus neutralization IC50 [4] [µg/mL] | pseudovirus neutralization IC50 [5] [µg/mL] | pseudovirus neutralization IC50 [6] [µg/mL] | pseudovirus neutralization IC50 [7] [µg/mL]
1 | B1 | 0.0478 | 0.0141 | 0.0117 | > 10 | > 10 | > 10 | 0.00462
2 | B2 | 0.0881 | 0.105 | 0.147 | 4.91 | > 10 | > 10 | 0.371
3 | B3 | 5.41 | 0.00126 | 3.87 | 0.00901 | > 10 | > 10 | 0.0457
4 | B4 | 0.198 | 0.285 | 0.368 | 0.835 | 0.813 | > 10 | 0.211
5 | B5 | 0.0198 | 0.0182 | 0.0221 | 2.37 | > 10 | > 10 | 0.00671
6 | B6 | > 10 | > 10 | > 10 | > 10 | > 10 | > 10 | > 10
7 | B7 | 0.0101 | 0.00558 | 0.00279 | > 10 | > 10 | > 10 | 0.00495
8 | B8 | > 10 | > 10 | > 10 | > 10 | > 10 | > 10 | > 10
9 | B9 | 0.681 | 0.625 | 0.402 | 0.195 | > 10 | > 10 | 0.474
10 | B10 | > 10 | > 10 | > 10 | > 10 | > 10 | > 10 | > 10
11 | B11 | > 10 | > 10 | > 10 | > 10 | > 10 | > 10 | 0.155
12 | B12 | 0.0111 | 0.0285 | 0.00761 | > 10 | > 10 | > 10 | 0.00201
